Measured values from several laboratories, pooled; numbers as filed in NIAID ChemDB.

Common to all: whole-cell or culture tests

Neighbouring rows are from separate reports.

compound	organism	strain or isolate	changes	method	setting	endpoint	dose	result
CCn1cc(/C=N/NC(=S)NN)c2ccccc21	Mycobacterium bovis BCG	1173P2		broth dilution	24 h	MIC100		>500 µg/mL
CCc1cc(C(N)=S)ccn1	Mycobacterium avium	ATCC 25291				Mean MIC		2.65 µg/mL
CN(C)[C@@H]1C(=O)C(C(N)=O)=C(O)[C@@]2(O)C(=O)C3=C(O)c4c(O)cccc4[C@@](C)(O)[C@H]3C[C@@H]12	Mycoplasma hominis	34 strains				MIC50		1 µg/mL
CN1CC2=C(C(=O)c3ccccc3C2=O)C12C(=O)N(Cc1ccccc1)c1ccccc12	Mycobacterium luteus			agar diffusion		zone	50 µg/mL	9 mm
CCC1CN(c2c(F)cc3c(=O)c(C(=O)O)cn(C4CC4)c3c2OC)CCN1	Mycobacterium smegmatis	KD1987 (GYRA A91V)				MIC99		0.38 µg/mL
COc1cc(Cc2cnc(N)nc2N)cc(OC)c1Br	Mycobacterium ulcerans	ATCC 19423				MIC		4 µg/mL
CNc1ccc2oc(C[C@@H]3OC4(CC[C@@H]3C)O[C@H](C(C)C(=O)c3ccc[nH]3)[C@H](C)C[C@H]4C)nc2c1C(=O)O	Mycobacterium aurum		G457A	resazurin		MIC		0.64 µg/mL
NNC(=S)N/N=C/c1cn(S(=O)(=O)c2ccccc2)c2ccccc12	Mycobacterium bovis BCG	1173P2		broth dilution	48 h	MIC100		>500 µg/mL
CC(=O)N1C(=O)C2(C3=C(CN2C)C(=O)c2ccccc2C3=O)c2ccccc21	Mycobacterium luteus			agar diffusion		MIC		15.62 µg/mL
Cc1nn(-c2ccccc2)c2c1C(c1cn(-c3ccccc3)nc1-c1ccc(Cl)cc1)C1=C(NC(C)(c3cc(O)c(I)cc3Cl)NC1=O)O2	Mycobacterium phlei	NCIM 2240		agar diffusion / agar		zone	0.5 mg/mL	1.5 mm
CN(C)c1cc(NC(=O)CNC(C)(C)C)c(O)c2c1C[C@H]1C[C@H]3[C@H](N(C)C)C(=O)C(C(N)=O)=C(O)[C@@]3(O)C(=O)C1=C2O	Mycobacterium massiliense	V30		broth dilution		MIC		0.125 µg/mL
Cc1nn(-c2ccccc2)c2c1C(c1cn(-c3ccccc3)nc1-c1ccc(Cl)cc1)C1=C(NC(C)(c3cc(O)ccc3Cl)NC1=O)O2	Mycobacterium phlei	NCIM 2240		agar diffusion / agar		MIC		100 µg/mL
O=C1c2cc(Cl)ccc2OP(=O)(c2ccccc2)N1c1ccc(C(F)(F)F)cc1	Mycobacterium kansasii	My 235/80			21 d	MIC		8 µM
CO[C@H]1/C=C/O[C@@]2(C)Oc3c(C)c(O)c4c(O)c(c5c(c4c3C2=O)NC2(CCN(CC(C)C)CC2)N=5)=NC(=O)/C(C)=C\C=C\[C@H](C)[C@H](O)[C@@H](C)[C@@H](O)[C@@H](C)[C@H](OC(C)=O)[C@@H]1C	Mycobacterium avium complex	921-5				MBC		16 µg/mL
CC(C)N1CCN(c2cc3c(cc2F)c(=O)c(C(=O)O)cn3C2CC2)CC1	Mycobacterium smegmatis	KD2003 (GYRA D95G)				MIC99		4.3 µg/mL
Cc1cc(-c2cc3c(cc2F)c(=O)c(C(=O)O)cn3C2CC2)cc(C)n1	Mycobacterium avium	453				MBC		2 µg/mL
CCN1C(=O)C2(C3=C(CN2C)C(=O)c2ccccc2C3=O)c2ccccc21	Mycobacterium luteus			agar diffusion		MIC		31.25 µg/mL
CC1CN(c2cc3c(cc2F)c(=O)c(C(=O)O)cn3C2CC2)CCN1	Mycobacterium smegmatis	KD2012 (GYRA G89A)				MIC99		0.92 µg/mL
CCCCCCCNC(=O)Nc1ccc(S(=O)(=O)Nc2cc(C)on2)cc1	Mycobacterium kansasii	235/80		broth dilution / absorbance	14 d	MIC100		8 µM
CN[C@@H]1[C@@H](O)[C@@H](O[C@@H]2[C@@H](O)[C@H](O[C@H]3O[C@H](CN)CC[C@H]3N)[C@@H](N)C[C@H]2N)OC[C@]1(C)O	Mycobacterium avium	ATCC 25291				Mean MIC		5 µg/mL
CC1COc2c(N3CCN(C)CC3)c(F)cc3c(=O)c(C(=O)O)cn1c23	Mycoplasma hominis	37 strains				MIC90		1 µg/mL
O=C(Nc1ccccc1)c1ccccc1OP(=O)(Oc1ccccc1)c1ccccc1	Mycobacterium kansasii	My 6509/96			21 d	MIC		500 µM
NNC(=S)N/N=C/c1cn(Cc2ccccc2)c2ccccc12	Mycobacterium bovis BCG	1173P2		broth dilution	24 h	MIC100		>500 µg/mL
NC[C@H]1O[C@H](O[C@H]2[C@H](O)[C@@H](O[C@H]3O[C@H](CO)[C@@H](O)[C@H](N)[C@H]3O)[C@H](N)C[C@@H]2N)[C@H](O)[C@@H](O)[C@@H]1O	Mycobacterium avium complex	Isolate C-20				MIC		≥400 µg/mL
CNC(=O)Nc1ccc(S(=O)(=O)Nc2cc(C)on2)cc1	Mycobacterium kansasii	235/80		broth dilution / absorbance	14 d	MIC100		62.5 µM
CCC1CN(c2cc3c(cc2F)c(=O)c(C(=O)O)cn3C2CC2)CCN1	Mycobacterium smegmatis	KD2012 (GYRA G89A)				MIC99		1 µg/mL
N[C@@H]1CONC1=O	Mycobacterium avium	ATCC 25291				Median MIC		37.5 µg/mL
Cc1cc(NS(=O)(=O)c2ccc(NC(=O)N(C(C)C)C(C)C)cc2)no1	Mycobacterium kansasii	235/80		broth dilution / absorbance	21 d	MIC100		250 µM
CO[C@@H]1C[C@@H](C[C@H]2CC[C@H](C)[C@H]([C@@H](C)C(=O)O)O2)O[C@]2(O[C@](C)([C@H]3CC[C@@](C)([C@@H]4O[C@@H]([C@H]5O[C@@](O)(CO)[C@H](C)C[C@@H]5C)C[C@@H]4C)O3)C[C@H]2C)[C@@H]1C	Mycobacterium aurum		G364T	resazurin		MIC		0.32 µg/mL
CCC[C@@H]1C[C@@H](C(=O)N[C@@H]([C@H]2O[C@H](SC)[C@H](O)[C@@H](O)[C@H]2O)[C@@H](C)O)N(C)C1	Mycobacterium avium	ATCC 25291				Mean MIC		112 µg/mL
CC1CN(c2c(F)cc3c(=O)c(C(=O)O)cn(C4CC4)c3c2F)CCN1	Mycobacterium smegmatis	KD1990 (GYRA D95A)				MIC99		0.47 µg/mL
Cc1cc(NS(=O)(=O)c2ccc(NC(=O)N3CCC3)cc2)no1	Mycobacterium kansasii	6509/96 clinical isolate		broth dilution / absorbance	7 d	MIC100		8 µM
CC(C)N1CCN(c2c(F)cc3c(=O)c(C(=O)O)cn(C4CC4)c3c2F)CC1	Mycobacterium smegmatis	KD1990 (GYRA D95A)				MIC99		2.4 µg/mL
O=C(Nc1ccccc1)c1ccccc1OP(=O)(c1ccccc1)c1ccccc1	Mycobacterium kansasii	My 6509/96			7 d	MIC		250 µM
Cc1ccc2c(c1)C1(C(=O)N2)C2=C(CN1C)C(=O)c1ccccc1C2=O	Mycobacterium luteus			agar diffusion		MIC		62.5 µg/mL
O=C1c2cc(Cl)ccc2OP(=O)(c2ccccc2)N1c1ccc(Cl)cc1	Mycobacterium kansasii	My 235/80			21 d	MIC		16 µM
Cc1nn(-c2ccccc2)c2c1C(c1cn(-c3ccccc3)nc1-c1ccc(Cl)cc1)C1=C(NC(C)(c3cc(O)c(Cl)c(O)c3)NC1=O)O2	Mycobacterium phlei	NCIM 2240		agar diffusion / agar		MIC		90 µg/mL
Cc1cc(NS(=O)(=O)c2ccc(NC(=O)C(=O)Nc3ccc(S(=O)(=O)Nc4cc(C)on4)cc3)cc2)no1	Mycobacterium kansasii	235/80		broth dilution / absorbance	21 d	MIC100		8 µM
CO[C@H]1/C=C/O[C@@]2(C)Oc3c(C)c(O)c4c(O)c(c5c(c4c3C2=O)NC2(CCN(CC(C)C)CC2)N=5)=NC(=O)/C(C)=C\C=C\[C@H](C)[C@H](O)[C@@H](C)[C@@H](O)[C@@H](C)[C@H](OC(C)=O)[C@@H]1C	Mycobacterium avium	ATCC 25291				Mean MIC		>0.56 µg/mL
Nc1ccc(S(=O)(=O)c2ccc(N)cc2)cc1	Mycobacterium ulcerans	Isolate 94-539				MBC		4 µg/mL
CC[C@H]1OC(=O)[C@H](C)[C@@H](O[C@H]2C[C@@](C)(OC)[C@@H](O)[C@H](C)O2)[C@H](C)[C@@H](O[C@@H]2O[C@H](C)C[C@H](N(C)C)[C@H]2O)[C@](C)(OC)C[C@@H](C)C(=O)[C@H](C)[C@@H](O)[C@]1(C)O	Mycobacterium massiliense	V184		broth dilution		MIC		0.5 µg/mL
O=C(Nc1ccccc1)c1ccccc1OP(=O)(Oc1ccccc1)Oc1ccccc1	Mycobacterium kansasii	My 6509/96			14 d	MIC		250 µM
CN1C(=O)C2(C3=C(CN2C)C(=O)c2ccccc2C3=O)c2ccccc21	Mycobacterium luteus			agar diffusion		zone	50 µg/mL	12 mm
O=C(Nc1ccc(Br)cc1)c1cc(Cl)ccc1OP(=O)(Oc1ccccc1)c1ccccc1	Mycobacterium kansasii	My 235/80			7 d	MIC		4 µM
CCCCCNC(=O)Nc1ccc(S(=O)(=O)Nc2cc(C)on2)cc1	Mycobacterium kansasii	235/80		broth dilution / absorbance	14 d	MIC100		250 µM
O=C(Nc1ccc(Cl)cc1)c1cc(Cl)ccc1OP(=O)(OCc1ccccc1)OCc1ccccc1	Mycobacterium kansasii	My 6509/96			21 d	MIC		32 µM
Cc1nn(-c2ccccc2)c2c1C(c1cn(-c3ccccc3)nc1-c1ccc(Cl)cc1)C1=C(NC(C)(c3cc(O)cc(O)c3)NC1=O)O2	Mycobacterium phlei	NCIM 2240		agar diffusion / agar		zone	1 mg/mL	4.5 mm
O=C(Nc1ccc(C(F)(F)F)cc1)c1cc(Cl)ccc1OP(=O)(OCc1ccccc1)OCc1ccccc1	Mycobacterium kansasii	My 6509/96			7 d	MIC		16 µM
CO[C@H]1/C=C/O[C@@]2(C)Oc3c(C)c(O)c4c(O)c(c(N5CCN(Cc6c(C)cc(C)cc6C)CC5)c(O)c4c3C2=O)NC(=O)/C(C)=C\C=C\[C@H](C)[C@H](O)[C@@H](C)[C@@H](O)[C@@H](C)[C@H](OC(C)=O)[C@@H]1C	Mycobacterium avium	50 strains				MIC90		0.11 µg/mL

Zones are inhibition diameters on agar. MIC50, MIC90 and the like: level of inhibition, or share of isolates inhibited. An empty or dashed field is not shown.